± gives the uncertainty stated by the source. The entries are a selection whose mix differs from that of the whole data set.

For this assay, the system named is THP-1. The experiment in a line: CD86 surface expression induction over DMSO control (% over DMSO); higher = stronger dendritic cell activation. The note with it: 10 µM; exposure time: 24 h. The protocol: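 hCLAT-like CD54 and CD86 surface expression on THP1 cells after 24 h exposure at a single concentration (highest non-cytotoxic concentration, or 100-200 µM if not cytotoxic). Flow cytometry (iQue) was run on 5,000 live cells.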
Consider `C[CH2][Sn]([Br])([CH2]C)[CH2]C` [Triethyltin bromide], for which the “CD86 surface expression induction” value worked out at 101 ± 15.

Source of the values: the supplement of paper PMC10933113.
